Measured data: PubChem BioAssay AID624099 (ICCB-Longwood, 2012)

- Assay: 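Knock-downs relieving repression by E2 of an HPV18 LCR luciferase reporter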 (primary screen)
- Cell system: human C33A cervical carcinoma cells (HPV-negative) stably expressing BPV1 E2 and an HPV18 LCR luciferase reporter
- Reagent: siRNA pool against human genes, 40 nM
- Duration: 72 h
- Measured: 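HPV18 LCR reporter light per well, converted to plate-wise z-scores that exclude control wells, and averaged over triplicate plates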
- Reading the numbers: mean z-score and z-score: higher = stronger reporter signal, weaker E2 silencing
- Active means: 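Hit if mean z-score reaches 2 and two or more of three replicate z-scores also reach 2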
In all, the deposit lists about 21,000 reagents; this is a part drawn at random. Of all reagents, 497 (2.4%) are marked active. 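Higher z means weaker E2 silencing; only reporter increases were scored, and knock-downs that hurt cell survival may mask genuine repressor factors.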

no.	gene	mean z-score	z-score, replicate A	z-score, replicate B	z-score, replicate C	Outcome
1	APOBEC4	-0.09	0.19	0.21	-0.66	inactive
2	PCOLCE2	1.28	1.11	1.45	1.28	inactive
3	CSF2RB	-0.68	-0.52	-0.72	-0.79	inactive
4	LOC402522 (retired record)	0.39	0.2	0.3	0.68	inactive
5	PHF19	-0.68	-0.73	-0.8	-0.51	inactive
6	EEF1A1	1.38	1.31	1.2	1.64	inactive
7	DCAF8L1	1.1	1.14	0.83	1.34	inactive
8	SLC22A13	-0.15	-0.07	0.09	-0.47	inactive
9	B4GALT3	-0.98	-1.04	-0.9	-1	inactive
10	PDE1B	0.25	0.02	0.33	0.41	inactive
11	ROBO4	1.61	1.76	1.23	1.83	inactive
12	PCDH8	0.62	0.83	0.74	0.28	inactive
13	KANK2	1.45	1.43	1.53	1.38	inactive
14	FAM53A	-0.19	-0.41	0.08	-0.23	inactive
15	TOR1AIP1	-0.03	-0.14	-0.2	0.24	inactive
16	PRAC1	-1.5	-1.55	-1.66	-1.28	inactive
17	SOWAHD	0.28	0.17	0.26	0.41	inactive
18	COX8A	-0.41	-0.48	-0.37	-0.39	inactive
19	ENDOG	1.29	1.06	1.65	1.16	inactive
20	MYD88	0.24	0.02	0.26	0.44	inactive
21	GABRA6	-1.35	-1.33	-1.39	-1.34	inactive
22	SYN2	0.73	0.76	0.7	0.73	inactive
23	HTATSF1P2	-0.61	-0.56	-0.66	-0.61	inactive
24	NDUFAF3	-0.67	-0.67	-0.46	-0.89	inactive
25	BEST2	-0.41	-0.33	-0.45	-0.46	inactive
26	USP27X-DT	-0.58	0.04	-0.81	-0.99	inactive
27	LOC389269 (retired record)	0.74	0.91	0.35	0.96	inactive
28	PTGR1	-1.37	-1.38	-1.5	-1.22	inactive
29	FKBP8	-0.44	-0.38	-0.18	-0.76	inactive
30	GCK	-0.6	-0.99	-0.25	-0.56	inactive
31	ENO1	1.09	1.33	0.94	0.99	inactive
32	USP7	-0.49	-0.37	-0.69	-0.42	inactive
33	KRT79	-0.44	-0.23	-0.57	-0.54	inactive
34	FCN2	-0.72	-0.43	-0.74	-0.98	inactive
35	ARHGEF5	-1.18	-1.73	-0.74	-1.07	inactive
36	MYORG	0.96	1.1	0.61	1.17	inactive
37	TMEM14A	-0.03	-0.4	0.05	0.26	inactive
38	SPACA1	0.74	0.81	0.84	0.55	inactive
39	LOC399924 (retired record)	-0.47	-0.36	-0.31	-0.74	inactive

3 consecutive reagents already listed, quoted:
no.	gene	mean z-score	z-score, replicate A	z-score, replicate B	z-score, replicate C	Outcome
5	PHF19	-0.68	-0.73	-0.8	-0.51	inactive
6	EEF1A1	1.38	1.31	1.2	1.64	inactive
7	DCAF8L1	1.1	1.14	0.83	1.34	inactive
